Assay results as given in PubChem BioAssay AID1159559 (GlaxoSmithKline (GSK), 2015).

Test system: T. cruzi Tulahuen in NIH-3T3, beta-gal fluorescence, 4 d
Test: T. cruzi intracellular growth inhibition, cell-based (AID 1159559)

**Q.** Which IC50 does the source give for `CC(C)(C)c1ccc(NC2(C(N)=O)CCN(Cc3ccccc3)CC2)cc1` here?
**A.** 320 nM
